This is a selection; strong and weak results do not stand in their true shares. Calls of active or inactive are those of the source. Rule as the data show it: active = inhibition mostly above about 37% (no sharp cut-off); inactive = mostly below about 20%.

This assay deals with PriA–SSB C-terminal tail interaction (Klebsiella pneumoniae). Put plainly: inhibitors of Klebsiella pneumoniae PriA binding to SSB C-terminal tail, primary screen, biochemical, AlphaScreen (AID 1272365).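 Also: plate controls were negative control peptide for no effect and reference peptide for full effect.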 The note with it: AlphaScreen SSBct-PriA binding, biotinylated peptide; at 33 µM; active compounds read high.
On to `CCc1ccc(OP(C)(=O)Nc2cccnc2)cc1` (stereo not drawn), for which the inhibition is inactive: -1.13%.
The value for `CP(=O)(Oc1ccccc1)N1CCOC1=O` (stereo not drawn) was inactive: -1.93%; that for `O=C(OCCCN1CCCC1)C(O)(c1ccccc1)C1CCCCC1` (stereo not drawn) was inactive: -10.6%.
`COc1ccccc1OP(C)(=O)Nc1c(C)n(C)n(-c2ccccc2)c1=O` (stereo not drawn): the inhibition was inactive: -8.58%.
For the compound `COc1ccc(OP(C)(=O)Nc2ccc(Br)cc2)cc1` (stereo not drawn), the inhibition was inactive: -5.62%.
The result for `CCN(CC)CC(O)COC(=O)C(O)(c1ccccc1)C1CCCCC1` (stereo not drawn) reads inactive: -16.7%; that for `CN(C)C(=O)c1c([N+](=O)[O-])cc([N+](=O)[O-])cc1[N+](=O)[O-]`, inactive: 4.01%.
The value for `CP(=O)(Nc1ccc(Cl)cc1)Oc1ccc(F)cc1` (stereo not drawn) was inactive: -5.29%; that for `COc1ccccc1OP(C)(=O)Nc1ccccc1Br` (stereo not drawn) was inactive: 6.24%.
For the compound `CC(C)(C)c1ccc(OP(C)(=O)O)cc1`, the inhibition is inactive: 0.67%.
The value for `CP(=O)(OC12CC3CC(CC(C3)C1)C2)OC12CC3CC(CC(C3)C1)C2` was inactive: 1.69%; that for `CCOC(=O)c1ccc(NP(C)(=O)Oc2ccc(Cl)cc2)cc1` (stereo not drawn) was inactive: -15.2%.
The value for `COc1ccc(OP(C)(=O)Nc2ccccc2Br)cc1` (stereo not drawn) was inactive: -2.64%; that for `COc1ccccc1OP(C)(=O)Nc1ccc(C)c(C)c1` (stereo not drawn) was inactive: -5.08%; that for `Cc1cc(C)cc(OP(C)(=O)Nc2cccc(C(F)(F)F)c2)c1` (stereo not drawn) was inactive: -10.7%.
As for `O=C1C(O)=C([N+](=O)[O-])C(=O)C(O)=C1[N+](=O)[O-]`, the inhibition was inactive: 2.64%.
For `CCCCCCCCCCCCCCCC1C[N+](C)(C)CCOP(C)(=O)O1` (stereo not drawn), the inhibition was inactive: -16.5%.
The result for `CP(=O)(Nc1ccc(Cl)cc1Cl)Oc1ccccc1` (stereo not drawn) reads inactive: -13.5%; that for `CP(=O)(OCCOc1ccccc1)OCCOc1ccccc1`, inactive: -8.87%; that for `CC(C)N1C(=O)CC2(CCN(CCOC(=O)C(O)(c3ccccc3)c3ccccc3)CC2)C1=O`, inactive: -13.1%.
The value for `CN(C)CCOC(=O)C(O)(c1ccccc1)C1CCCC1` (stereo not drawn) was inactive: -13.1%.
The value for `COc1ccc(OP(C)(=O)Nc2ccccn2)cc1` (stereo not drawn) was inactive: -1.21%; that for `COc1ccccc1OP(C)(=O)Nc1ccc(Br)cc1` (stereo not drawn) was inactive: -0.84%.
As to `CCc1ccc(OP(C)(=O)O)cc1`, the inhibition was inactive: -17.5%.
The value for `COc1ccccc1OP(C)(=O)Nc1ccc(C)cc1C` (stereo not drawn) was inactive: -8.71%.
The value for `CP(=O)(Nc1ccccn1)Oc1ccccc1` (stereo not drawn) was inactive: -4.58%; that for `Cc1c(NP(C)(=O)Oc2ccc(C(C)C)cc2)c(=O)n(-c2ccccc2)n1C` (stereo not drawn) was inactive: -5.98%.
The value for `O=[N+]([O-])c1cc([N+](=O)[O-])c(Nc2ccccn2)c([N+](=O)[O-])c1` was inactive: 20.8%.

These data come from PubChem BioAssay AID1272365 (Small Molecule Screening Facility, UW Madison, 2020).
